Compound potency records, mixed from different reports. Data source: NIAID ChemDB in PubChem.

All rows: tests in culture; agent: Pneumocystis carinii

ECn is the concentration giving n% inhibition of infection, replication or growth. Blank or dashed fields: not listed here. Inhibition is in % at the dose shown (toxicity tests: loss of growth or viability). Rows are shuffled and stem from different studies.

{"SMILES": "C(=N\\Nc1ccccc1)/c1ccc(N2CCN(c3ccc(/C=N/Nc4ccccc4)cc3)CC2)cc1", "endpoint": "EC50", "read by": "ATP", "result": ">100 µg/mL"}
{"SMILES": "NC(=NCCc1ccccc1)c1ccc(N2CCN(c3ccccc3)CC2)cc1", "endpoint": "inhibition", "dose": "10 µg/mL", "result": "94%"}
{"SMILES": "N#Cc1ccc(N2CCN(c3ccc(C#N)cc3)CC2)cc1", "endpoint": "EC50", "read by": "ATP", "result": ">100 µg/mL"}
{"SMILES": "N=C(N)c1ccc(OCCCCCOc2ccc(C(=N)N)cc2)cc1", "endpoint": "inhibition", "dose": "10 µg/mL", "result": "88%"}
{"SMILES": "N/C(=N\\O)c1ccc(N2CCN(c3ccc(/C(N)=N/O)cc3)CC2)cc1", "endpoint": "EC50", "read by": "ATP", "result": "3.3 µg/mL"}
{"SMILES": "CCCCCN=C(N)c1ccc(N2CCN(c3ccc(C(N)=NCCCCC)cc3)CC2)cc1.Cl.Cl", "endpoint": "EC50", "cells": "A549", "read by": "ATP", "result": "0.001 µg/mL"}
{"SMILES": "COCCn1ccc(=O)c(O)c1C", "endpoint": "EC50", "cells": "Human fibroblasts", "conditions": "7 d", "result": ">18 µM"}
{"SMILES": "CC(=O)Nc1ccc(C(=O)O)cc1", "endpoint": "inhibition", "dose": "1000 µM", "result": "100%"}
{"SMILES": "N=C(N)c1ccc(OCCCCCOc2ccc(C(=N)N)cc2)cc1", "endpoint": "EC50", "cells": "A549", "read by": "ATP", "result": "0.3 µg/mL"}
{"SMILES": "Cc1c(O)c(=O)ccn1C", "endpoint": "EC50", "cells": "Human fibroblasts", "conditions": "7 d", "result": ">18 µM"}
{"SMILES": "O=[N+]([O-])c1ccc(N2CCN(c3ccc([N+](=O)[O-])cc3)CC2)cc1", "endpoint": "EC50", "read by": "ATP", "result": "34.1 µg/mL"}
{"SMILES": "CC(C)CCN=C(N)c1ccc(N2CCN(c3ccc(C(N)=NCCC(C)C)cc3)CC2)cc1.Cl.Cl", "endpoint": "EC50", "cells": "A549", "read by": "ATP", "result": "0.009 µg/mL"}
{"SMILES": "NC(=NCc1ccccc1)c1ccc(N2CCN(c3ccccc3)CC2)cc1", "endpoint": "inhibition", "dose": "50 µg/mL", "result": "93%"}
{"SMILES": "CN=C(N)c1ccc(N2CCN(c3ccc(C(N)=NC)cc3)CC2)cc1", "endpoint": "EC50", "read by": "ATP", "result": "1.53 µg/mL"}
{"SMILES": "CC(=O)N(O)CCCCCNC(=O)CCC(=O)N(O)CCCCCNC(=O)CCC(=O)N(O)CCCCCN.[Mg]", "endpoint": "EC50", "cells": "Human fibroblasts", "conditions": "7 d", "result": "<30 µM"}
{"SMILES": "CCCCCCCCCCCCN=C(N)c1ccc(N2CCN(c3ccccc3)CC2)cc1", "endpoint": "inhibition", "dose": "10 µg/mL", "result": "79%"}
{"SMILES": "CC(=O)N(O)CCCCCNC(=O)CCC(=O)N(O)CCCCCNC(=O)CCC(=O)N(O)CCCCCN", "endpoint": "inhibition", "cells": "Human fibroblasts", "dose": "30 µM", "conditions": "7 d", "result": "81%"}
{"SMILES": "NC(=NCCCc1ccccc1)c1ccc(N2CCN(c3ccccc3)CC2)cc1", "endpoint": "inhibition", "dose": "10 µg/mL", "result": "96%"}

A second listing of 2 rows from above:

SMILES,endpoint,cells,dose,read by,conditions,result
NC(=NCc1ccccc1)c1ccc(N2CCN(c3ccccc3)CC2)cc1,inhibition,,50 µg/mL,,,93%
N#Cc1ccc(N2CCN(c3ccc(C#N)cc3)CC2)cc1,EC50,,,ATP,,>100 µg/mL